Test [1] addresses cross-linked self-assembled CA tubes (CA A14C/E45C co-assembled with CA K158C-AF488) (HIV-1). Briefly: TIRF fluorescence microscopy binding assay; cross-linked CA tubes held on the cover slip by an anti-p24 antibody; CypA 1-50 uM (1 uM AF647-CypA plus unlabelled CypA) flowed in; 50 mM Tris pH 8, 150 mM NaCl; equilibrium binding model on the CypA:CA molar ratio.
The target in test [2] is biotinylated cross-linked CA hexamer (CA A14C/E45C/W184A/M185A) (HIV-1). The experiment in a line: SPR; Biacore S200; biotinylated CA K158C or biotinylated CA hexamer immobilised on streptavidin-modified CM5 chip; CypA injected at 1.1-72.8 uM; 10 mM HEPES pH 8, 0.005% Tween 20, 2 mM EDTA, 150 mM NaCl; equilibrium analysis, single experiments.
For test [3], the target named is biotinylated CA K158C (unassembled HIV-1 CA) (HIV-1). The description is as above.

“wild type cyclophilin A (CypA) (from UniProt P62937 1-165) (enzyme)”: the Kd in test [1] was found to be 14.5 µM; in test [2], 23.7 µM; in test [3], 26.8 µM. In test [1], the stoichiometry N (molar ratio of CypA:CA when saturated) was 0.4.

For the origin of these results see paper PMC6449974.
